Patent US11142584, “CD20-binding proteins comprising Shiga toxin A subunit effector regions for inducing cellular internalization and methods using same” (dated 2021)
Where “and” joins values, the source holds several entries; their conditions need not be identical. Equal values may be shown once. Read-outs that look alike come from different tables or passages of the source.

Experiments:
[1] = target: CD20 (B-lymphocyte antigen CD20) on human lymphoma cells, human (UniProt P11836)
[2] = target: CD20 (B-lymphocyte antigen CD20) on human lymphoma cells, human (UniProt P11836); test: flow cytometry on Raji (CD20+) cells, multiple experiments

Row | Substance | Kd [1] [nM] | Kd [2]
1 | αCD20scFv1::SLT-1A version 2 | 101 | 
2 | αCD20scFv1::SLT-1A version 1 | 82.5 | 80 nM and 100 nM
